Compound potency records, mixed from different reports. Data source: NIAID ChemDB in PubChem.

Shared fields: growth or infection tests; agent: Candida albicans; method: broth dilution; measure: MIC

An empty or dashed field is not shown. Lines come from different laboratories, so protocols vary.

| smiles | conditions | strain or isolate | result |
|---|---|---|---|
| Nn1c(SCC(O)(Cn2cncn2)c2ccc(Cl)cc2Cl)nnc1-c1ccccc1 | - | IRFC 36 | 4 µg/mL |
| COc1ccc2cc1Oc1ccc(cc1)CCc1ccc(c(O)c1)Oc1cccc(c1)CC2 | - | CA 02 | >512 µg/mL |
| CCn1c2ccccc2c2cnn(-c3ccc(OC)cc3)c(=O)c21 | - | - | 250 µg/mL |
| C=C1C[C@@H]2C[C@@H]3CCO[C@@H](O3)c3coc(n3)/C=C/C[C@H]3O[C@@H](/C(C)=C/c4coc(C[C@]5(O)C[C@H](OC)C[C@H]([C@H](O)/C=C(C)/C=C/[C@@H](C/C=C/Cl)OC)O5)n4)[C@H](C)[C@@H](OC(=O)/C=C\C[C@@H](C1)O2)[C@H]3C | - | 96-489 | 4 µg/mL |
| Nn1c(SCC(O)(Cn2cncn2)c2ccc(F)cc2F)nnc1-c1ccccc1 | - | PTCC 6027 | >64 µg/mL |
| C[C@@H](c1ncncc1F)[C@](O)(Cn1cncn1)c1ccc(F)cc1F | pH 4 | 15 isolates | 0.03 µg/mL |
| CCc1ccccc1-n1ncc2c3ccccc3n(CC)c2c1=O | - | - | 250 µg/mL |
| CCCCCCCCCCCCCCCC(=O)NC(CCCCN)C(=O)NC(CCCCN)C(N)=O | - | 4887 | 0.5 µg/mL |
| CCOC(=O)c1c(C=O)c2ccccc2n1CC | - | - | 250 µg/mL |
| Oc1ccc2c(c1)CCc1ccc(cc1)Oc1cc(ccc1O)CCc1ccc-2c(O)c1 | - | CA10 | 32 µg/mL |
| Nn1c(SCC(O)(Cn2cncn2)c2ccc(F)cc2F)nnc1-c1ccc(Cl)cc1 | - | PTCC 6027 | >64 µg/mL |
| O=c1c2[nH]c3ccccc3c2cnn1-c1ccccc1 | - | - | 250 µg/mL |
| CCC(C)CC(C)CCCCCCCCC(=O)N[C@H]1C[C@@H](O)[C@H](NCCN)NC(=O)[C@@H]2[C@@H](O)CCN2C(=O)[C@H]([C@H](O)CCN)NC(=O)[C@H]([C@H](O)[C@@H](O)c2ccc(O)cc2)NC(=O)[C@@H]2C[C@@H](O)CN2C(=O)[C@H]([C@@H](C)O)NC1=O | - | 8649 | 4 µg/mL |
| COc1ccc(-c2nnc(SCC(O)(Cn3cncn3)c3ccc(F)cc3F)n2N)cc1 | - | PTCC 6027 | >64 µg/mL |
| O=c1c2[nH]c3ccccc3c2cnn1-c1ccc(Cl)cc1 | - | - | 250 µg/mL |
| Clc1ccc(COC(Cn2ccnc2)c2ccc(Cl)cc2Cl)c(Cl)c1 | pH 5 | 10 isolates | 0.125 µg/mL |
| CCC(C)CC(C)CCCCCCCCC(=O)N[C@H]1C[C@@H](O)[C@H](NCCN)NC(=O)[C@@H]2[C@@H](O)CCN2C(=O)[C@H]([C@H](O)CCN)NC(=O)[C@H]([C@H](O)[C@@H](O)c2ccc(O)cc2)NC(=O)[C@@H]2C[C@@H](O)CN2C(=O)[C@H]([C@@H](C)O)NC1=O | - | CLY16996 | >16 µg/mL |
| COc1ccc(-c2nnc(SCC(O)(Cn3cncn3)c3ccc(Cl)cc3Cl)n2N)cc1 | - | IRFC 192 | >64 µg/mL |
| C=C1C[C@@H]2C[C@@H]3CCO[C@@H](O3)c3cccc(c3)/C=C/C[C@H]3O[C@@H](/C(C)=C/I)[C@H](C)[C@@H](OC(=O)/C=C/C[C@@H](C1)O2)[C@H]3C | - | ATCC 14503 | >64 µg/mL |
| Oc1cc2ccc1Oc1cccc(c1)CCc1ccc(O)c(c1)Oc1ccc(cc1)CC2 | - | CA10 | >512 µg/mL |
| C=C1C[C@@H]2C[C@@H]3CCO[C@@H](O3)c3coc(n3)/C=C/C[C@H]3O[C@@H](/C(C)=C/c4coc(C[C@]5(OC)C[C@H](OC)C[C@H]([C@H](O)/C=C(C)/C=C/[C@@H](C/C=C/Cl)OC)O5)n4)[C@H](C)[C@@H](OC(=O)/C=C\C[C@@H](C1)O2)[C@H]3C | - | UCD-FR1 | >64 µg/mL |
| O=c1c(OC2CCCC2)c(N2CCN(S(=O)(=O)NCc3ccccc3)CC2)cnn1-c1cccc(Cl)c1 | - | CLY16997 | 8 µg/mL |
| CC(C)(O)c1cn(-c2ccc(Cl)cc2)nn1 | - | URM 4127 | 128 µg/mL |
| C=C1C[C@@H]2C[C@@H]3CCO[C@@H](O3)c3cccc(c3)/C=C\C[C@H]3O[C@@H](/C(C)=C/I)[C@H](C)[C@@H](OC(=O)/C=C/C[C@@H](C1)O2)[C@H]3C | - | UCD-FR1 | >64 µg/mL |
| Clc1ccccc1C(c1ccccc1)(c1ccccc1)n1ccnc1 | pH 5 | 10 isolates | 0.03 µg/mL |
| C[C@H]1[C@H](O)[C@@H](C)/C=C/C=C/C=C/C=C/C=C/C=C/C=C/[C@H](O[C@@H]2O[C@H](C)[C@@H](O)[C@H](N)[C@@H]2O)C[C@@H]2O[C@](O)(C[C@@H](O)C[C@@H](O)CC[C@H](O)[C@@H](O)C[C@@H](O)CC(=O)O[C@H]1C)C[C@H](O)[C@H]2C(=O)O | - | 24433 | 0.03 µg/mL |
| CC[C@@H]([C@H](C)O)n1ncn(-c2ccc(N3CCN(c4ccc(OC[C@@H]5CO[C@@](Cn6cncn6)(c6ccc(F)cc6F)C5)cc4)CC3)cc2)c1=O | pH 6 | 10 isolates | 0.03 µg/mL |
| Nc1ncccc1-c1cc(Cc2ccc(COc3ccccn3)cc2)no1 | - | 8647 | 0.03 µg/mL |